Each structure is given as a SMILES string. The list shows a part of the results, in another mix than the full data. Some salts or complexes appear as unconnected parts, following the source record. The source made the active and inactive calls. Cut-off read from the data, not from the text of the source: active = activation above about 50%; inactive = the rest.

The chains behind the UniProt entries cited, without tags or fusion partners.
UniProt P0AE70, whole entry, looked up: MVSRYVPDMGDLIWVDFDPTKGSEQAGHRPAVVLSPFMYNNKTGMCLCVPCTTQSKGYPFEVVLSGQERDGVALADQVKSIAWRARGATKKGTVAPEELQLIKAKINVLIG

This assay deals with Endoribonuclease toxin MazF (Escherichia coli (strain K12)) (UniProt P0AE70). Nature of the assay: activators of E. coli MazEF toxin-antitoxin RNase, primary screen, biochemical, fluorescence, uHTS (AID 504720). The following applies: FAM/BHQ RNA-DNA oligo cleavage fluorescence, 5 h, at 20 µM, stronger effect = higher value.
Turning to `CP(=O)(Nc1ccc(SC(F)(F)F)cc1)Oc1ccc(F)cc1` (configuration not stated), the activation is inactive: -15.1%.

Consider `CCOP(C)(=S)SCC(=O)NC(C)(CC)C(=O)O` (configuration not stated), for which the activation is inactive: -0.38%.

Regarding `CP(=O)(Nc1ccc2c(c1)OCCO2)Oc1ccccc1` (configuration not stated), the activation was inactive: -2.09%.

In the case of `Cc1ccccc1NP(C)(=O)Nc1ccccc1C`, the activation was inactive: -9.33%.

Consider `COc1ccc(OP(C)(=O)Nc2cccc(Br)c2)cc1` (configuration not stated), for which the activation was inactive: 4.08%.

As for `CN(C)CCOC(=O)C(O)(c1ccccc1)C1CCCCC1` (configuration not stated), the activation was inactive: 2.34%.

Turning to `COc1ccc(NP(C)(=O)Oc2ccccc2OC)cc1` (configuration not stated), the activation was inactive: 1.48%.

As to `O=[N+]([O-])c1ccc(OP2(=O)COCCO2)cc1` (configuration not stated), the activation was inactive: 2.36%.

As to `O=[N+]([O-])c1cc([N+](=O)[O-])c(NCC2CCS(=O)(=O)C2)c([N+](=O)[O-])c1` (configuration not stated), the activation is inactive: -0.625%.

As for `Cc1cc(-c2cccc3ccccc23)c(C)cn1.O=[N+]([O-])c1cc([N+](=O)[O-])c(O)c([N+](=O)[O-])c1`, the activation was inactive: -11.3%.

`Cc1c(C(c2ccc3c(c2)OCO3)c2c(C)n(C)n(-c3ccccc3)c2=O)c(=O)n(-c2ccccc2)n1C.O=[N+]([O-])c1cc([N+](=O)[O-])c(O)c([N+](=O)[O-])c1`: the activation was inactive: -15.2%.

In the case of `CCOC(=O)c1ccc(NP(C)(=O)Oc2ccc(F)cc2)cc1` (configuration not stated), the activation is inactive: 4.55%.

Take `COc1ccc(OP(C)(=O)Nc2ccc(SC(F)(F)F)cc2)cc1` (configuration not stated): the activation is inactive: 7.02%.

Take `Cc1c([N+](=O)[O-])cc([N+](=O)[O-])c(Br)c1[N+](=O)[O-]`: the activation is inactive: -3%.

As to `CCN(CC)CCCOC(=O)C(O)(c1ccccc1)C1CCCCC1` (configuration not stated), the activation was inactive: -1.02%.

On to `CP(=O)(Nc1ccccc1)Oc1ccc(F)cc1` (configuration not stated), for which the activation was inactive: 2.31%.

For the compound `CCCCCOc1ccc(NP(C)(=O)Oc2ccc(Cl)cc2Cl)cc1` (configuration not stated), the activation was inactive: -13.4%.

For the compound `O=[N+]([O-])c1cc([N+](=O)[O-])c(OC2CCCCC2O)c([N+](=O)[O-])c1` (configuration not stated), the activation was inactive: -5.19%.

On to `O=[N+]([O-])c1cc([N+](=O)[O-])c(Nc2ccc(Cl)cc2)c([N+](=O)[O-])c1`, for which the activation is inactive: 8.31%.

In the case of `CP(=O)(Nc1ccccc1F)Oc1ccccc1` (configuration not stated), the activation was inactive: -14.3%.

In the case of `CC(C)c1ccc(OP(C)(=O)Nc2ccc(SC(F)(F)F)cc2)cc1` (configuration not stated), the activation was inactive: 2.66%.

Take `O=C(OC1CN2CCC1CC2)c1ccc([N+](=O)[O-])cc1` (configuration not stated): the activation was inactive: 2.98%.

In the case of `O=C(OCCN1CCN(CCOCc2ccccc2)CC1)C(O)(c1ccccc1)c1ccccc1`, the activation is inactive: 0.15%.

As to `COc1ccc2c(c1O)-c1c(O)c(OC)cc3c1[C@H](C2)[N+](C)(C)CC3.O=[N+]([O-])c1cc([N+](=O)[O-])c([O-])c([N+](=O)[O-])c1[O-]`, the activation was inactive: 1.44%.

`COc1ccccc1OP(C)(=O)Nc1cccc(Br)c1` (configuration not stated): the activation was inactive: 11.6%.

As to `CCOC(=O)c1ccc(NP(C)(=O)Oc2cc(C)cc(C)c2)cc1` (configuration not stated), the activation was inactive: -10.1%.

As to `Cc1cc(C)cc(OP(C)(=O)Nc2ccc(C)cc2C)c1` (configuration not stated), the activation is inactive: -1.84%.

With `Cc1ccc(C)c(NP(C)(=O)Oc2ccccc2)c1` (configuration not stated), the activation is inactive: 3.71%.

Turning to `Cc1cc(C)cc(OP(C)(=O)Nc2ccccn2)c1` (configuration not stated), the activation is inactive: -0.565%.

As for `CP(=O)(Nc1cccc(Br)c1)Oc1ccccc1` (configuration not stated), the activation was inactive: -3.71%.

Take `O=C(O)c1cccc(Nc2c([N+](=O)[O-])cc([N+](=O)[O-])cc2[N+](=O)[O-])c1`: the activation was inactive: -2.08%.

As to `CC1=NCCc2c1[nH]c1ccccc21.O=[N+]([O-])c1cc([N+](=O)[O-])c(O)c([N+](=O)[O-])c1`, the activation is inactive: -5.97%.

Consider `CC1=C2N=C(C=C3N=C(C(C)=C4[N-][C@@](C)([C@@H]5N=C1[C@](C)(CCC(=O)NC[C@@H](C)OP(=O)([O-])O[C@H]1[C@@H](O)[C@@H](n6cnc7cc(C)c(C)cc76)O[C@@H]1CO)[C@H]5CC(N)=O)[C@@](C)(CC(N)=O)[C@@H]4CCC(N)=O)[C@@](C)(CC(N)=O)[C@@H]3CCC(N)=O)C(C)(C)[C@@H]2CCC(N)=O.[C-]#N.[Co+3]`, for which the activation is inactive: -32%.

On to `O=[N+]([O-])c1cc([N+](=O)[O-])c(Nc2nnnn2CCO)c([N+](=O)[O-])c1`, for which the activation was inactive: -1.41%.

With `CCOC(=O)C(CC)C1=NC(C)(C)Cc2ccccc21.O=[N+]([O-])c1cc([N+](=O)[O-])c(O)c([N+](=O)[O-])c1` (configuration not stated), the activation is inactive: 1.24%.

Consider `CN1CCCCC1COC(=O)C1(O)c2ccccc2CCc2ccccc21` (configuration not stated), for which the activation was inactive: -4.25%.

Take `COc1ccccc1OP(C)(=O)Nc1c(C)cccc1C` (configuration not stated): the activation is inactive: 6.06%.

Regarding `CCCOc1ccc(NP(C)(=O)Oc2ccc(Cl)cc2)cc1` (configuration not stated), the activation was inactive: 5.5%.

For the compound `CP(=O)(Nc1ccc(SC(F)(F)F)cc1)Oc1ccccc1` (configuration not stated), the activation is inactive: -3.78%.

Take `O=[N+]([O-])c1cc([N+](=O)[O-])c(-n2nnc3ccccc32)c([N+](=O)[O-])c1`: the activation was inactive: 0.227%.

Consider `O=[N+]([O-])c1cc([N+](=O)[O-])c(-c2cnn(-c3ccccc3)c2)c([N+](=O)[O-])c1`, for which the activation is inactive: 2.98%.

Turning to `Cc1nc2ccc3ccccc3c2s1.O=[N+]([O-])c1cc([N+](=O)[O-])c(O)c([N+](=O)[O-])c1`, the activation is inactive: -1.87%.

Take `CP(=O)(Nc1ccc(SC(F)(F)F)cc1)Oc1ccc(Cl)cc1` (configuration not stated): the activation was inactive: 0.952%.

Regarding `Cc1cccc(C)c1OP(C)(=O)Nc1ccc(SC(F)(F)F)cc1` (configuration not stated), the activation was inactive: -5.02%.

With `Cc1ccc(Nc2c([N+](=O)[O-])cc([N+](=O)[O-])cc2[N+](=O)[O-])cc1`, the activation is inactive: 7.99%.

As for `CP(=O)(Oc1ccccc1)OC(c1ccccc1)C(F)(F)F` (configuration not stated), the activation was inactive: 14.4%.

With `CP(=O)(NC(=O)Nc1ccccc1)Oc1ccccc1` (configuration not stated), the activation is inactive: -6.65%.

For the compound `CCc1ccc(OP(C)(=O)N2CCN(c3ccc([N+](=O)[O-])cc3)CC2)cc1` (configuration not stated), the activation was inactive: 7.2%.

As to `Cc1cc(C)cc(OP(C)(=O)Nc2ccc(SC(F)(F)F)cc2)c1` (configuration not stated), the activation is inactive: 2.71%.

For `O=[N+]([O-])c1cc([N+](=O)[O-])c(O)c([N+](=O)[O-])c1.c1ccc(Oc2ccncc2)cc1`, the activation is inactive: 11.4%.

Consider `CCOC(=O)c1ccc(NP(C)(=O)Oc2ccc(OC)cc2)cc1` (configuration not stated), for which the activation is inactive: -3.51%.

As for `CCOP(C)(=S)SCC(=O)NC(C)C(=O)O` (configuration not stated), the activation is inactive: 2.9%.

Regarding `CP(=O)(Nc1ccccn1)Oc1ccc(Cl)cc1` (configuration not stated), the activation was inactive: -8.19%.

Regarding `CP(=S)(Nn1cnnc1)Oc1ccccc1` (configuration not stated), the activation was inactive: -2.03%.

For `CP(=O)(Nc1ccccc1Br)Oc1ccccc1` (configuration not stated), the activation is inactive: 1.32%.

Turning to `COc1ccccc1OP(C)(=O)Nc1ccccc1` (configuration not stated), the activation is inactive: 9.3%.

For `O=[N+]([O-])c1cc([N+](=O)[O-])c(Nc2cccnc2)c([N+](=O)[O-])c1`, the activation is inactive: 3.95%.

As for `O=[N+]([O-])c1ccc2c(c1)C=Nc1ccccc1O2`, the activation is inactive: 0.438%.

Consider `CC(C)(C)c1ccc(OP(C)(=O)Nc2ccc(SC(F)(F)F)cc2)cc1` (configuration not stated), for which the activation was inactive: -6.16%.

Regarding `Cc1cccc(C)c1OP(C)(N)=O` (configuration not stated), the activation is inactive: 4.79%.

Turning to `COc1ccccc1OP(C)(=O)Nc1ccc(C)cc1` (configuration not stated), the activation is inactive: -4.33%.

As to `Cc1ccc(NP(C)(=O)Oc2ccccc2)c(C)c1` (configuration not stated), the activation is inactive: 2.22%.

For the compound `CCOC(=O)c1ccc(NP(C)(=O)Oc2ccccc2)cc1` (configuration not stated), the activation was inactive: 3.84%.

Regarding `Cc1cc(C)cc(OP(C)(N)=O)c1` (configuration not stated), the activation was inactive: -13.8%.

On to `COc1ccccc1OP(C)(=O)Nc1cc(Cl)ccc1C` (configuration not stated), for which the activation is inactive: -0.08%.

Regarding `COc1ccc(OP(C)(=O)Nc2cccc(F)c2)cc1` (configuration not stated), the activation was inactive: 7.54%.

Take `CCN(CC)CCCOC(=O)C(O)(c1ccccc1)c1ccccc1`: the activation is inactive: 8.7%.
